Measurements from “University of Dundee, Small-Polar-MMV Screening Library” (2021), ChEMBL document CHEMBL3988442.

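Phenotypic screen: M. tuberculosis growth, cholesterol and DPPC medium, 4 days; the read-out is not stated. Compounds at 500 µM. The record gives no direction; compounds that gave an IC50 in retests scored well above the rest, so higher reads as more growth inhibition. Size under these conditions: about 18,000 compounds, about 900 of them at 50% or above in at least one test.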

The filed quantity is “Percent Effect” (%).
How 0% and 100% were set is not recorded. Most values in the screen are low, and negative values occur.
Many other results are left out here, so strong results are more common than in the screen.

{"compound": "Clc1ccc(N2CCN(Cc3ncc[nH]3)CC2)nc1", "effect": 22.62}
{"compound": "CC(C)c1cccc(NC(=O)CN2CCC(O)CC2)c1", "effect": 62.28}
{"compound": "CCNC(=O)CNc1ccnc2ccc(Br)cc12", "effect": 18.79}
{"compound": "COc1ccccc1-c1cc(CO)[nH]n1", "effect": 20.61}
{"compound": "CC(OCCCN)c1ccccc1", "stereo": "stereo unspecified", "effect": 17.13}
{"compound": "CN(C)C(=O)c1cc(-c2cccs2)on1", "effect": 61.09}
{"compound": "CCn1cnnc1CNCc1c[nH]nc1C", "effect": 4.834}
{"compound": "C=C(C)c1nc(C#N)c(NCc2ccco2)o1", "effect": 76.18}
{"compound": "CCC(C)(C)NC(=O)c1nnn(-c2ccccc2)c1C", "effect": 66.15}
{"compound": "COc1ccc(OC2CCNCC2)nc1", "effect": 4.844}
{"compound": "O=C(Cn1cc(Br)cn1)Nc1ccc2c(c1)OCCO2", "effect": 54.5}
{"compound": "CN1Cc2cccn2CC1CNC(=O)c1cccn1C", "stereo": "stereo unspecified", "effect": -0.9721}
{"compound": "CC(C)NC(=O)Cn1c(S(C)(=O)=O)nc2ccccc21", "effect": -13.61}
{"compound": "Cc1nonc1CC(=O)N1CCCC(c2ncc[nH]2)C1", "stereo": "stereo unspecified", "effect": 3.902}
{"compound": "CCN1CCC(CNC(=O)Nc2ccc(OC)nc2)C1", "stereo": "stereo unspecified", "effect": -22.49}
{"compound": "Cc1ccccc1NC(=O)Cn1cccn1", "effect": -8.79}
{"compound": "COCCNC(=O)N1CCCN(C(=O)C(C)(C)C)CC1", "effect": 11.81}
{"compound": "CCNC(=O)C(C)Nc1nc2ccccc2o1", "stereo": "stereo unspecified", "effect": 13.02}
{"compound": "CCOC(=O)C(C)Nc1ccc2c(c1)CCCC(=O)N2", "stereo": "stereo unspecified", "effect": 71.35}
{"compound": "N#Cc1ccc(S(=O)(=O)NCCCN)cc1C(F)(F)F", "effect": 39.87}
{"compound": "CC(C)NC(=O)Nc1cc(C(F)(F)F)c[nH]c1=O", "effect": 110.5}
{"compound": "NCC1CCN(CCc2ccccc2)C1", "stereo": "stereo unspecified", "effect": 64.95}
{"compound": "CN(C)CCNC(N)=O", "effect": -2.058}
{"compound": "CC(C)c1cc(C(=O)N2CC[C@@H](N)C2)nn1C(C)(C)C", "effect": 20.36}
{"compound": "N[C@H]1CN(S(=O)(=O)c2cccc(Cl)c2)C[C@@H]1C1CC1", "effect": 50.92}
{"compound": "CCOC(=O)NCCC(=O)NCc1ccccn1", "effect": -2.205}
{"compound": "CCC(COC)NCc1nnc2n1CCCC2", "stereo": "stereo unspecified", "effect": -2.357}
{"compound": "CSCC[C@H]1NC(=O)c2ccccc2NC1=O", "effect": -16.68}
{"compound": "CC(C)(C)OC(=O)NC1CC2(CNC2)C1", "effect": 61.53}
{"compound": "CCOc1ccc(CN2CCC(O)CC2)cc1", "effect": 16.3}
{"compound": "CSCc1noc(CN2CCCC2c2nc(C)n[nH]2)n1", "stereo": "stereo unspecified", "effect": 15.6}
{"compound": "CCCN(CCOC)CC(=O)Nc1ccn(C)n1", "effect": 11.84}
{"compound": "CS(=O)(=O)N(CC(F)(F)F)c1ccncc1", "effect": -7.793}
{"compound": "CCn1nnnc1SCc1cc(C#N)ccc1F", "effect": 70.7}
{"compound": "CCOCCOc1cc(C)ccc1CN", "effect": 21.4}
{"compound": "Cn1ccc(NC(=O)CN2CC[C@](C)(O)C(C)(C)C2)n1", "effect": -11.57}
{"compound": "CN(c1cccc(C(N)=O)c1)S(=O)(=O)c1ccccc1", "effect": 25.83}
{"compound": "CC1CN=C(N2CCN(c3ccc(C#N)cn3)CC2)S1", "stereo": "stereo unspecified", "effect": -5.946}
{"compound": "Cc1nnc(CN(C)CC2CCN(C)C2(C)C)o1", "stereo": "stereo unspecified", "effect": -14.97}
{"compound": "COCc1nn(Cc2csc(C(C)C)n2)c(=O)o1", "effect": 70.08}

For reference, 5 entries once more:

| compound | effect |
|---|---|
| `CCNC(=O)CNc1ccnc2ccc(Br)cc12` | 18.79 |
| `N#Cc1ccc(S(=O)(=O)NCCCN)cc1C(F)(F)F` | 39.87 |
| `CCOCCOc1cc(C)ccc1CN` | 21.4 |
| `CC(C)(C)OC(=O)NC1CC2(CNC2)C1` | 61.53 |
| `CCn1nnnc1SCc1cc(C#N)ccc1F` | 70.7 |